Results of unrelated studies side by side (data: NIAID ChemDB).

Shared fields: tests on isolated targets; organism: HIV-1; protein: Reverse transcriptase; method: nucleotide incorporation; endpoint: IC50

Lines come from different laboratories, so protocols vary.

structure,strain,mutations,result
COC(=O)/C=C/C1=C(N)C2(OS1(=O)=O)[C@@H](CO[Si](C)(C)C(C)(C)C)O[C@@H](n1cc(C)c(=O)n(C)c1=O)[C@@H]2O[Si](C)(C)C(C)(C)C,,RT-E138K,>500 µM
Nc1ncnc2c1ncn2CCOCP(=O)(O)OP(=O)(O)OP(=O)(O)O,,,0.083 µM
CCN1c2cccnc2N(C)C(=O)c2ccc(C)nc21,,,>>1 µM
CN(C)c1ccc(-c2c3nc(c(-c4ccc(N(C)C)cc4)c4ccc([nH]4)c(-c4ccc(N(C)C)cc4)c4nc(c(-c5ccc(N(C)C)cc5)c5ccc2[nH]5)C=C4)C=C3)cc1,,,>100 µM
Nc1ncnc2c1ncn2[C@@H]1O[C@H](COP(=O)(O)OP(=O)(O)OP(=O)(O)O)C[C@@H]1F,,RT-Q151M,115 µM
O=C(OCC1O[C@@H](O)C(O)(COC(=O)c2cc(O)c(O)c(O)c2)C1O)c1cc(O)c(O)c(O)c1,,,>20 µg/mL
CCCc1cccnc1N(C)C1CCN(C(=O)c2cc3cc(NS(C)(=O)=O)ccc3[nH]2)CC1,IIIB,,<1 µM
O=C(O[C@@H]1O[C@@H]2COC(=O)c3cc(O)c(O)c(O)c3-c3c(cc(O)c(O)c3O)C(=O)O[C@H]([C@H]1OC(=O)c1cc(O)c(O)c(O)c1)[C@@H]2OC(=O)c1cc(O)c(O)c(O)c1)c1cc(O)c(O)c(O)c1,,,>20 µg/mL
CCN1c2ccc([N+](=O)[O-])nc2N(C)C(=O)c2cccnc21,,,>>1 µM
CN(C)C(=O)Oc1nsnc1-c1c(Cl)cccc1Cl,IIIB-R (RT-Y181C),RT-Y181C,>200 µM
Cc1cn([C@@H]2O[C@H](CO[Si](C)(C)C(C)(C)C)C3(OS(=O)(=O)C(/C=C/CO)=C3N)[C@H]2O[Si](C)(C)C(C)(C)C)c(=O)n(C)c1=O,,RT-E138K,>500 µM
CCN1c2ncccc2C(=O)N(C)c2nccc(C)c21,,,>>1 µM
O=C(CCCCCCCCC(=O)Nc1cc(S(=O)(=O)O)c2cccc(S(=O)(=O)O)c2c1)Nc1cc(S(=O)(=O)O)c2cccc(S(=O)(=O)O)c2c1,,,26.6 µM
COc1ccccc1-c1c2nc(c(-c3ccccc3OC)c3ccc([nH]3)c(-c3ccccc3OC)c3nc(c(-c4ccccc4OC)c4ccc1[nH]4)C=C3)C=C2,,,>100 µM
O=C1OCC2OC(=O)c3cc(O)c(O)c(O)c3-c3c(O)c(O)c(O)c4c3C(=O)OC(C2OC(=O)c2cc(O)c(O)c(O)c2-c2c1cc(O)c(O)c2O)C1OC(=O)C2C4=C(O)C(=O)C23Oc2cc(O)c4c(c2C13)O[C@H](c1ccc(O)c(O)c1)C(O)C4,,,>20 µg/mL
CCCCNC(=O)Oc1nsnc1-c1c(Cl)cccc1Cl,IIIB,,>200 µM
CCCc1cc(CCc2nc3c(Cl)ccc(Cl)c3o2)c(=O)[nH]c1C,,,0.03 µM
Cc1cn([C@H]2C[C@H](N=[N+]=[N-])[C@@H](COP(=O)(O)CP(=O)(O)OP(=O)(O)O)O2)c(=O)[nH]c1=O,IIIB,,4.6 µM
COC(=O)/C=C/C1=C(N)C2(OS1(=O)=O)[C@@H](CO[Si](C)(C)C(C)(C)C)O[C@@H](n1cc(C)c(=O)[nH]c1=O)[C@@H]2O[Si](C)(C)C(C)(C)C,,RT-E138K,>500 µM
CCN1c2cc(C)c(C)cc2N(C)S(=O)(=O)c2cccnc21,,,22 µM
CCN(C)C(=O)Oc1nsnc1-c1c(Cl)cccc1Cl,IIIB-R (RT-Y181C),RT-Y181C,66.4 µM
CCOc1ccc(-c2c3nc(c(-c4ccc(OCC)cc4)c4ccc([nH]4)c(-c4ccc(OCC)cc4)c4nc(c(-c5ccc(OCC)cc5)c5ccc2[nH]5)C=C4)C=C3)cc1,,,>100 µM
Cc1cn([C@H]2C[C@H](N=[N+]=[N-])[C@@H](COP(=O)(O)CP(=O)(O)O)O2)c(=O)[nH]c1=O,IIIB,,14 µM
CC1OC(O)C2OC(=O)c3cc(O)c(O)c(O)c3-c3c(cc(O)c(O)c3O)C(=O)OC2C1O,,,>20 µg/mL
CCCCCCN(C)C(=O)Oc1nsnc1-c1c(Cl)cccc1Cl,IIIB-R (RT-Y181C),RT-Y181C,>200 µM
CNC(=O)CCCCC=C(c1cc(OC)c(OC)c(C(=O)OC)c1)c1cc(OC)c(OC)c(C(=O)OC)c1,,,0.804 µM
O=C1CC2OC(O)C3OC(=O)c4cc(O)c(O)c(O)c4-c4c(cc(O)c(O)c4O)C(=O)OC3C2OC(=O)c2cc(O)c(O)c(O)c2-c2c1cc(O)c(O)c2O,,,>20 µg/mL

Repeating the final 3 entries:

{"structure": "CCCCCCN(C)C(=O)Oc1nsnc1-c1c(Cl)cccc1Cl", "strain": "IIIB-R (RT-Y181C)", "mutations": "RT-Y181C", "result": ">200 µM"}
{"structure": "CNC(=O)CCCCC=C(c1cc(OC)c(OC)c(C(=O)OC)c1)c1cc(OC)c(OC)c(C(=O)OC)c1", "result": "0.804 µM"}
{"structure": "O=C1CC2OC(O)C3OC(=O)c4cc(O)c(O)c(O)c4-c4c(cc(O)c(O)c4O)C(=O)OC3C2OC(=O)c2cc(O)c(O)c(O)c2-c2c1cc(O)c(O)c2O", "result": ">20 µg/mL"}

An empty or dashed field is not shown. ICn: concentration for n% inhibition.